Results reported in the supplement of paper PMC9931576.
Human monoclonal antibodies against the spike receptor-binding domain (heavy:light variable regions). IC50 against pseudoviruses bearing the spike of naturally observed variants; lower = stronger; >10 µg/ml means not reached at the top dose. No active / inactive call. The stated detection limit is 0.0005 µg/ml; values near or below 0.001 µg/ml lie at the floor of the assay.

B1: BD56-1812 (protein)
chain 1: EVQLVESGGGLVQPGGSLRLSCAASGFTFSNYDMHWVRQAAGTGLEWVSLIGTAGDTYYPDSVKGRFTISRENAKSSLYLQMNSLRVGDTAVYYCARASYDTDDLGGPHLDYWGQGTLVAVSS
chain 2: DIQLTQSPSSLSASLGDRVTLTCRASQSISRYLHWYQQKPGKAPKLLIYVASTLQRGVPSRFSGSGSGTDFTLTISSLQPEDFATYYCQQSYTSPLYTFGQGTKLEMK
B2: BD56-1803 (protein)
chain 1: EVQLVESGGGLVQPGRSLRLSCAASGFIFDDYAMHWVRQPPGKGLEWVSGVTSNSATIGYADSVKGRFIITRDNAENSMYLQMRSLRVEDTALYYCVKDSYRGRTMVRGYEDYGLDVWGQGTTVTVSS
chain 2: SFVLTQPPSVSVAPGQTARITCGGTFIATKSVHWCQQRPGQAPVLVVHDDADRPSGIPERFSGSKSGNTATLTISRVEAGDEADYYCQVWDSSSDHVVFGGGTHLTVL
B3: BD56-1806 (protein)
chain 1: EVQLVESGGGLVQPGGSLRLSCAASGFTFRSYDMHWVRQVTGKGLDWVSTIGTAGDGYYADSVKGRFTISRENAKNSLYLQMNSLRAGDTAVYYCARVGYTSSLTYWYLDVWGRGTLVTVSS
chain 2: DIQMTQSPSSLSASIGDRVTITCRASQTIRSYLNWYQQKPGKAPNLLIYAASTLQSGVPSRFSGSGSGTDFTLTISSLQPEDFATYYCQQSYTTPLFTFGPGTKVDLK
B4: BD56-1797 (protein)
chain 1: QVTLRESGPALVKPTQTLTLTCTFSGFSLSTSGMCVNWIRQPPGKALEWLARIDWDGDRYFNKSLETRLTISKDTSKNQVVLTMTNMDPVDTATYYCARMREVRGGDYGMDVWGQGTTVTVSS
chain 2: QSVLTQPPSASGTPGHRVSISCSGSTSNIERNTVNWYQQVPGTAPKLLIYMNNQRPSGVPDRFSGSKSGTSASLAVSGLRSEDEADYYCATWDDSLNGWVFGGGTKLTVL
B5: BD56-1796 (protein)
chain 1: QVQLVQSGAEVKNPGSSVKVSCKASGGTFSSYVICWVRQAPGQGLEWMGGIISTLDIANYAPRFQGRVSITADKSTTTAYMELSSLRSEDTAIYYCARAAPSHCSSTRCYDIWGQGTLVTVSS
chain 2: QSVLTQPPSVSGAPGQRVTISCTGSSSNIEAGYDVHWYQQLPGTAPKLLIYDNTNRPSGVPDRFSGSKSGTSASLAITGLQAEDEADYYCQSYDSSLIGSVFGGGTKLTVL
B6: BD56-1801 (protein)
chain 1: QVQLVESGGGVVQPGRSLRLSCAASGFTFKSYGMHWVRQAPGKGLEWVAVISYDGSFKYYADSVKGRFTISRDNSKNTLYLQMSSLRPEDTAVYYCAKEEGEMTTYFDYWGQGTLVTVSS
chain 2: DIQMTQSPSSLSASVGDRVTITCRASQSISSYLNWFQQKPGKAPKLLIYDASSLQSGVPSRFSGSGSGTHFTLSISSLQPEDFATYYCQQSYSTPPWTFAQGTRVEVK

target: SARS-CoV-2 Omicron BA.1 spike pseudovirus; assay: pseudovirus neutralization IC50; higher = weaker neutralization
Method: (§1)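 Single-round VSV luciferase pseudovirus mixed with antibody dilutions for 1 h and put on Huh-7 cells for about a day; IC50 from the dose curve.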

| Binder | pseudovirus neutralization IC50 [µg/mL] |
| --- | --- |
| B1 | > 10 |
| B2 | 0.0654 |
| B3 | > 10 |
| B4 | > 10 |
| B5 | 0.0819 |
| B6 | 3.99 |

target: SARS-CoV-2 Omicron BA.2 spike pseudovirus; assay: as above
Method: as §1

| Binder | pseudovirus neutralization IC50 [µg/mL] |
| --- | --- |
| B1 | > 10 |
| B2 | 0.0864 |
| B3 | > 10 |
| B4 | 0.00842 |
| B5 | 0.0752 |
| B6 | 4.02 |

target: SARS-CoV-2 Omicron BA.2.75 spike pseudovirus; assay: as above
Method: as §1

| Binder | pseudovirus neutralization IC50 [µg/mL] |
| --- | --- |
| B1 | > 10 |
| B2 | 0.0296 |
| B3 | > 10 |
| B4 | > 10 |
| B5 | 0.12 |
| B6 | 5.81 |

target: SARS-CoV-2 Omicron BA.5 spike pseudovirus; assay: as above
Method: as §1

| Binder | pseudovirus neutralization IC50 [µg/mL] |
| --- | --- |
| B1 | > 10 |
| B2 | 0.0997 |
| B3 | > 10 |
| B4 | 0.00461 |
| B5 | > 10 |
| B6 | 2.58 |

target: SARS-CoV-2 Omicron BQ.1.1 spike pseudovirus; assay: as above
Method: as §1

| Binder | pseudovirus neutralization IC50 [µg/mL] |
| --- | --- |
| B1 | > 10 |
| B2 | > 10 |
| B3 | > 10 |
| B4 | > 10 |
| B5 | > 10 |
| B6 | 4.45 |

target: SARS-CoV-2 Omicron XBB spike pseudovirus; assay: as above
Method: as §1

| Binder | pseudovirus neutralization IC50 [µg/mL] |
| --- | --- |
| B1 | > 10 |
| B2 | > 10 |
| B3 | > 10 |
| B4 | > 10 |
| B5 | > 10 |
| B6 | 2.79 |

target: SARS-CoV-2 early D614G spike pseudovirus; assay: as above
Method: as §1

| Binder | pseudovirus neutralization IC50 [µg/mL] |
| --- | --- |
| B1 | > 10 |
| B2 | 0.0292 |
| B3 | > 10 |
| B4 | 0.0186 |
| B5 | 0.29 |
| B6 | 1.06 |
